# Molecular target: λCI-Ec β flap domain (aa residues 831–1057) (Escherichia coli) (UniProt P0A8V2)
# Test: two-hybrid
substance,measurement,value
α-P7 (R60E) fusion protein (natural protein),"loss of the ability to interact, against wild-type P7",50%
